Results of unrelated studies side by side (data: NIAID ChemDB).

Shared fields: whole-cell or culture tests; agent: Mycobacterium tuberculosis

MIC bound: limit read from a one-dose screen. Conditions beyond the fields shown may differ between rows. Two numbers with a dash give a range or band. Percent inhibition refers to the dose given; in toxicity tests it is the harm to the cells. ECn: concentration that inhibits the pathogen or its effect by n%. A number after MIC or MFC names an inhibition level or a share of isolates. An empty or dashed field is not shown.

smiles,strain or isolate,conditions,tested at,read-out,method,mutations,result
COc1ccccc1NC(=O)C(N=Nc1ccc(S(=O)(=O)Nc2nccc(C)n2)cc1)C(C)=O,H37Rv,-,-,MIC bound,resazurin,-,>6.25 µg/mL
CO/N=C(\C(=O)N[C@@H]1C(=O)N2C(C(=O)O)=C(CSc3nnnn3CCNS(=O)(=O)O)CS[C@H]12)c1csc(N)n1,8 strains,-,100 µg/mL,inhibition,BACTEC,-,0%
CCCCNC(=S)NNC(=O)COc1cnccn1,H37Rv,-,-,MIC,-,-,45 µg/mL
COc1cc(C)c2c(=O)c3c(oc2c1)C(=O)c1c(O)c(OC)cc(O)c1C3=O,INH-r,-,-,MIC,-,-,12.5 µg/mL
COC(=O)COc1ccc(-c2ccc(C#N)cc2)c(CN2CCN(c3ccccn3)CC2)c1,H37Rv (ATCC 27294),-,-,MIC,broth dilution,-,4 µg/mL
O=C1NC(=NCc2ccc(Cl)cc2)N/C1=C\c1ccccc1Cl,H37Rv,-,-,MIC,-,-,>12.5 µg/mL
C[C@@H]1CN(c2c(F)c(N)c3c(=O)c(C(=O)O)cn(C4CC4)c3c2F)C[C@H](C)N1,890902,-,-,MIC,-,-,0.1 µg/mL
O=C(N/N=C/c1ccc(F)cc1)c1ccc(F)cc1,H37Rv,-,-,MIC,-,-,>6.25 µg/mL
O=C1NC(=Nc2ccc(Cl)cc2Cl)N/C1=C\c1ccccc1Cl,H37Rv,-,-,MIC,-,-,>12.5 µg/mL
NCCc1ccc2oc3cc(=O)c4ccccc4c-3nc2c1,H37Rv,-,-,MIC bound,BACTEC,-,≤12.5 µg/mL
N#Cc1ccc(-c2ccc(OCC(N)=O)cc2CN2CCN(c3ccccn3)CC2)cc1,H37Rv (ATCC 27294),-,-,MIC,broth dilution,-,64 µg/mL
CC[N+]([O-])(CC)CCNc1ccc(CO)c2sc3ccccc3c(=O)c12.O=CO,H37Rv,-,12.5 µg/mL,inhibition,BACTEC,-,23%
CO/N=C(\C(=O)N[C@@H]1C(=O)N2C(C(=O)O)=C(COC(C)=O)CS[C@H]12)c1csc(N)n1,12 strains,-,-,EC50,BACTEC,-,<100 µg/mL
O=C(O)/C=C/c1cnccn1,H37Rv,-,-,MIC,BACTEC,-,≥12.5 µg/mL
CC(C(=O)O)c1ccc(O)c2ncccc12,M 607,-,-,MIC50,-,-,10 µg/mL
C/C=C/C(C1=C(O)c2ccccc2C(=O)C1=O)C1=C(O)c2ccccc2C(=O)C1=O,H37Rv,-,12.8 µg/mL,inhibition,BACTEC,-,16%
CCCc1ccc(O)c2ncccc12,H37Rv,-,-,MIC50,-,-,>10 µg/mL
CC(NC(=O)c1c(F)cccc1F)c1nnc(SCc2ccc(F)cc2)n1Cc1cccnc1,H37Rv (ATCC 27294),7 d,-,MIC,broth dilution,-,>64 µg/mL
O=C(c1ccc([N+](=O)[O-])o1)N1CCc2cc(N3CCN(Cc4ccccc4)CC3)ccc2C1,HN878,-,-,MIC,-,-,0.05 µg/mL
O=C1NC(=Nc2ccc(Cl)cc2Cl)N/C1=C\c1c(Cl)cccc1Cl,H37Rv,-,-,MIC,-,-,>12.5 µg/mL
O=C(N/N=C/c1cccs1)c1ccc(Br)cc1,H37Rv,-,-,MIC,-,-,>6.25 µg/mL
Nc1nc(-c2ccco2)cc(-c2ccc(CO)o2)n1,H37Rv,-,12.5 µg/mL,inhibition,BACTEC,-,11%
COc1ccccc1/C=C(\C#N)n1nnc2ccccc21,ATCC 27294,-,-,MIC50,-,-,32.3 µM
CO[C@H](C(=O)[C@@H](O)[C@@H](C)O)[C@@H]1Cc2cc3cc(O[C@H]4C[C@@H](O[C@H]5C[C@@H](O)[C@H](O)[C@@H](C)O5)[C@@H](O)[C@@H](C)O4)c(C)c(O)c3c(O)c2C(=O)[C@H]1O[C@H]1C[C@@H](O[C@H]2C[C@@H](O[C@H]3C[C@](C)(O)[C@H](O)[C@@H](C)O3)[C@H](O)[C@@H](C)O2)[C@H](O)[C@@H](C)O1,H37Rv,-,12.5 µg/mL,inhibition,BACTEC,-,55%
O=[N+]([O-])c1cn2c(n1)OC[C@@H](OCc1ccc(OC(F)(F)F)cc1)C2,UT15,-,-,MIC,-,-,0.024 µg/mL
O=C1C2=C(c3ccccc31)C(c1ccccc1Cl)N1C(=O)CSC1=N2,H37Rv,-,-,MIC bound,BACTEC,-,>12.5 µg/mL
NNC(=O)c1ccncc1,MC8,-,-,MIC,-,-,<0.2 µg/mL
NC(=O)c1cnccn1,ATCC 25618 niacin-positive,-,-,MIC,-,-,64 µg/mL
CCCCCCCCN1C(=O)CC(C)C1=O,H37Ra,-,-,MIC,-,-,≤20 µg/mL
NC(=O)NC(=O)N/N=C/c1ccc([N+](=O)[O-])o1,H37Rv,-,6.25 µg/mL,inhibition,resazurin,-,65%
CO[C@H]1/C=C/O[C@@]2(C)Oc3c(C)c(O)c4c(=O)c(c5oc6cc(N7CCN(CC(C)C)CC7)cc(=O)c6nc5c4c3=C2O)NC(=O)/C(C)=C\C=C\[C@H](C)[C@H](O)[C@@H](C)[C@@H](O)[C@@H](C)[C@H](OC(C)=O)[C@@H]1C,Atencio,-,-,MBC,-,-,0.008 µg/mL
O=C1NC(=Nc2ccccc2Cl)N/C1=C\c1ccc(Cl)cc1Cl,H37Rv,-,12.5 µg/mL,inhibition,-,-,13%
COc1ccc(/C=C(\C#N)n2nnc3ccccc32)cc1,ATCC 27294,-,-,MIC50,-,-,70 µM
Fc1cccc(F)c1Nc1nc(-c2ccccn2)cs1,H37Rv,-,-,MIC,visual reading,-,2.1 µM
CC(C)Cn1c(-c2ccccc2)cs/c1=N\NC(=O)COc1cnccn1,H37Rv,-,-,MIC,-,-,18 µg/mL
NNC(=O)c1ccncc1,Pan-susceptible clinical isolate 14,-,-,MIC,-,-,0.06 µg/mL
CCCCCCN1C(=O)C=CC1=O,H37Rv,-,-,MIC,-,-,≤20 µg/mL
CCc1nc2c(O)cccc2cc1C,H37Rv,-,-,MIC50,-,-,5–10 µg/mL
CC(C)Cn1c(-c2ccc(Cl)cc2Cl)cs/c1=N\NC(=O)COc1cnccn1,H37Rv,-,-,MIC,-,-,6.6 µg/mL
CN1CCN(c2cc3c(cc2F)c(=O)c(C(=O)O)cn3-c2ccc(F)cc2)CC1,12 strains,-,100 µg/mL,inhibition,BACTEC,-,100%
O=C(N/N=C/c1ccc([N+](=O)[O-])cc1)c1ccc(F)cc1,H37Rv,-,-,EC50,-,-,>6.25 µg/mL
Cc1nc(C)c(C(=O)Nc2cccc3c2C(=O)NC3=O)cc1C(=O)Nc1cccc2c1C(=O)NC2=O,H37Rv,-,-,MIC bound,BACTEC,-,>12.5 µg/mL
Cc1cn2c(C(=O)NCc3ccc(N4CCN(c5ccc(C(F)(F)F)cn5)CC4)c(F)c3)c(C)nc2s1,H37Rv,-,-,MIC,resazurin / fluorescence,cydKO,0.003 µM
C=C1CC(=O)N(CCCCCCCC)C1=O,H37Ra,-,-,MIC,-,-,≤20 µg/mL
CC(=O)OCC1=C(C(=O)O)N2C(=O)[C@@H](NC(=O)CSc3ccncc3)[C@H]2SC1,8 strains,-,-,EC50,BACTEC,-,<100 µg/mL
CC(C)(C)c1ccc(C(=O)Nc2nccc(-c3ccccn3)n2)cc1,H37Rv,-,-,MIC,visual reading,-,>20 µM
Cc1ccc(NC(=O)CCC(=O)O)cc1Cl,H37Rv,-,12.5 µg/mL,inhibition,BACTEC,-,0%
FC(F)(F)c1ccccc1Nc1nc(-c2ccccc2S)cs1,H37Rv,-,-,MIC,visual reading,-,>20 µM
CN[C@@H]1[C@H](O[C@H]2[C@H](O[C@H]3[C@H](O)[C@@H](O)[C@H](N=C(N)N)[C@@H](O)[C@@H]3N=C(N)N)O[C@@H](C)[C@]2(O)C=O)O[C@@H](CO)[C@H](O)[C@H]1O,98596,-,-,MIC,-,-,≥2 µg/mL
Cc1cn2c(C(=O)NCc3ccc(N4CCC(c5ccc(OC(F)(F)F)cc5)CC4)cc3)c(C)nc2s1,H37Rv,-,-,MIC,resazurin / fluorescence,-,0.007 µM
Cc1nc(C#N)ccc1-c1ccc(OCC(=O)O)cc1CN1CCN(c2ccccn2)CC1,H37Rv (ATCC 27294),-,-,MIC,broth dilution,-,32 µg/mL
CO/N=C1\CN(c2nc3c(cc2F)c(=O)c(C(=O)O)cn3C2CC2)CC1CN,82 strains,-,-,MIC50,-,-,4 µg/mL
CCOC(=O)N1CCN(c2ccc(C3CC(c4ccc([N+](=O)[O-])o4)=NO3)cc2)CC1,UT18,-,-,MIC,-,-,0.0008 µg/mL
O=C(Nc1nc(-c2ccccn2)cs1)C1CCCCC1,H37Rv,-,-,MIC,visual reading,-,1.4 µM
NC(=O)c1cnccn1,M6669,-,-,MIC,-,-,60 µg/mL
FC(F)(F)c1ccc(Nc2nc(-c3ccccn3)cs2)cc1,H37Rv,-,-,MIC,visual reading,-,20 µM
Cc1coc(C)c1C(=S)Nc1ccc(Cl)c(C(=O)OC(C)C)c1,H37Rv,-,-,MIC bound,BACTEC,-,>12.5 µg/mL
COc1ccccc1Nc1nc(-c2ccccn2)cs1,H37Rv,-,-,MIC,visual reading,-,20 µM
CO/N=C(\C(=O)N[C@@H]1C(=O)N2C(C(=O)O)=CCS[C@H]12)c1csc(N)n1,8 strains,-,-,EC50,BACTEC,-,<100 µg/mL
O=C(N/N=C/c1cccs1)c1ccc(F)cc1,H37Rv,-,-,MIC,-,-,>6.25 µg/mL
Cc1cn2c(C(=O)NCc3ccc(N4CCOCC4)c(F)c3)c(C)nc2s1,H37Rv,-,-,MIC,resazurin / fluorescence,K14b00DS,0.37 µM
NNOC(=O)COc1cnccn1,H37Rv,-,-,MIC,-,-,>200 µg/mL
S=c1[nH]nc2scnn12,H37Rv,-,-,MIC,BACTEC,-,≥128 µg/mL
N#C/C(=C/c1ccccc1Br)n1nnc2ccccc21,ATCC 27294,-,-,MIC50,-,-,9 µM
O=C(O)CCc1ccc(O)c2ncccc12,H37Rv,-,-,MIC50,-,-,0.1–0.5 µg/mL
CCOc1ccc(-n2c(-c3ccc(Br)cc3)cs/c2=N\NC(=O)COc2cnccn2)cc1,H37Rv,-,-,MIC,-,-,8.9 µg/mL
N#C/C(=C/c1cccc(Br)c1)n1nnc2ccccc21,ATCC 27294,-,-,MIC50,-,-,29.6 µM
COc1cc(-c2[o+]c3cc(O)cc(O)c3cc2O)cc(O)c1O.[Cl-],H37Rv,-,-,MIC,BACTEC,-,≥128 µg/mL
N#C/C(=C/c1ccccc1Cl)n1nnc2ccccc21,ATCC 27294,-,-,MIC50,-,-,13.8 µM
CCN(CC)P1(=S)OCC(C)O1,H37Rv,-,6.25 µg/mL,inhibition,resazurin,-,8%
CCCCCCCCS(=O)(=O)CC(N)=O,42401315,-,-,MIC,-,-,≤6.25 µg/mL
NC1[C@H]2CN(c3nc4c(cc3F)c(=O)c(C(=O)O)cn4-c3ccc(F)cc3F)C[C@@H]12,82 strains,-,-,MIC90,-,-,>4 µg/mL
Cc1cn2c(C(=O)NCc3ccc(N(C)C)cc3)c(C)nc2s1,H37Rv,-,-,MIC,resazurin / fluorescence,-,0.246 µM
O=C(COc1cnccn1)N/N=c1\scc(-c2ccc(F)cc2)n1-c1ccc(Cl)cc1Cl,H37Rv,-,-,MIC,-,-,12.2 µg/mL
CCN(CC)c1nc2c(s1)c1c(O)c3c(O)c(C)c4c(c32)C(=O)[C@@](C)(O/C=C/[C@H](OC)[C@@H](C)[C@@H](OC(C)=O)[C@H](C)[C@H](O)[C@H](C)[C@@H](O)[C@@H](C)/C=C/C=C(/C)C(=O)N1)O4,1620-4,-,-,MBC,-,-,0.5 µg/mL
NC(=O)C1C2CCC(O2)C1C(=O)O,H37Rv,-,12.5 µg/mL,inhibition,BACTEC,-,0%
O=C1NC(Nc2cccc(Cl)c2)=N/C1=C\c1c(Cl)cccc1Cl,H37Rv,-,12.5 µg/mL,inhibition,-,-,0%
CCCCCCCCCN1C(=O)CC(SCCNC(=O)C2CCCC2)C1=O,H37Ra,-,-,MIC,-,-,≤20 µg/mL
CCC1C[N+]2=C(c3cc(OC)c(OC)cc3CC2)c2c1cc1n2CCc2cc(OC)c(OC)cc2-1,H37Rv,-,-,MIC,BACTEC,-,2 µg/mL
O=C(Nc1nc(-c2ccccn2)cs1)c1ccccc1O,H37Rv,-,-,MIC,visual reading,-,1.4 µM
CC1=C(C(=O)Nc2ccccc2)C(c2ccc(N(C)C)cc2)C(C(=O)Nc2ccccc2)=C(C)N1,H37Rv,-,-,MIC bound,resazurin,-,>6.25 µg/mL
Cc1cn2c(C(=O)NCc3ccc(C(F)(F)F)cc3)c(C)nc2s1,H37Rv,-,-,MIC,resazurin / fluorescence,QcrB4 A396T,0.07 µM
Cc1[nH]nc(C(=O)N/N=C/c2cccs2)c1N=NN(C)C,H37Rv,-,12.5 µg/mL,inhibition,BACTEC,-,100%
Cc1cc(N)c2ncccc2c1,M 607,-,-,MIC50,-,-,>25 µg/mL

Repeating the final 9 entries:

smiles | strain or isolate | conditions | tested at | read-out | method | mutations | result
NC(=O)C1C2CCC(O2)C1C(=O)O | H37Rv | - | 12.5 µg/mL | inhibition | BACTEC | - | 0%
O=C1NC(Nc2cccc(Cl)c2)=N/C1=C\c1c(Cl)cccc1Cl | H37Rv | - | 12.5 µg/mL | inhibition | - | - | 0%
CCCCCCCCCN1C(=O)CC(SCCNC(=O)C2CCCC2)C1=O | H37Ra | - | - | MIC | - | - | ≤20 µg/mL
CCC1C[N+]2=C(c3cc(OC)c(OC)cc3CC2)c2c1cc1n2CCc2cc(OC)c(OC)cc2-1 | H37Rv | - | - | MIC | BACTEC | - | 2 µg/mL
O=C(Nc1nc(-c2ccccn2)cs1)c1ccccc1O | H37Rv | - | - | MIC | visual reading | - | 1.4 µM
CC1=C(C(=O)Nc2ccccc2)C(c2ccc(N(C)C)cc2)C(C(=O)Nc2ccccc2)=C(C)N1 | H37Rv | - | - | MIC bound | resazurin | - | >6.25 µg/mL
Cc1cn2c(C(=O)NCc3ccc(C(F)(F)F)cc3)c(C)nc2s1 | H37Rv | - | - | MIC | resazurin / fluorescence | QcrB4 A396T | 0.07 µM
Cc1[nH]nc(C(=O)N/N=C/c2cccs2)c1N=NN(C)C | H37Rv | - | 12.5 µg/mL | inhibition | BACTEC | - | 100%
Cc1cc(N)c2ncccc2c1 | M 607 | - | - | MIC50 | - | - | >25 µg/mL